Measurements from paper PMC8775380, “A Complexed Crystal Structure of a Single-Stranded DNA-Binding Protein with Quercetin and the Structural Basis of Flavonol Inhibition Specificity” (International Journal of Molecular Sciences, 2022).
The exact form of at least one protein or probe is not confirmed. Tags and fusion partners may be left off the protein sequences shown.

Target: T1, PaSSB (single-stranded DNA-binding protein) (Pseudomonas aeruginosa) (UniProt P40947)
T1 sequence (looked up, limits assumed): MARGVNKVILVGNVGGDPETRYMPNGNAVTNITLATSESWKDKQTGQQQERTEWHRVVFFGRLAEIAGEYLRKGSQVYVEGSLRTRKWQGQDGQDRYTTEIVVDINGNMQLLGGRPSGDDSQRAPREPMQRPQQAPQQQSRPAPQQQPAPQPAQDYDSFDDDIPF
Test: EMSA (inhibition)
Settings: myricetin 0-100 uM (IC50 is of myricetin), 1.25 uM PaSSB, EMSA: 40 mM Tris-HCl pH 7.5, 50 mM NaCl, 37 °C 60 min, DNA 30 fmol/uL, PaSSB 0-5 uM, 8% native PAGE in TBE, flavonols dissolved in 10% DMSO, recombinant protein, label: biotin (3' in Results, 5' in Methods)

“TTTTTTTTTTTTTTTTTTTTTTTTTTTTTTTTTTT [dT35]” gave an IC50 of 2800 nM.
